Compound potency records, mixed from different reports. Data source: NIAID ChemDB in PubChem.

Shared fields: tests in culture; agent: Mycobacterium tuberculosis

MIC bound: limit read from a one-dose screen. ECn is the concentration giving n% inhibition of infection, replication or growth. MIC50, MIC90 and the like: level of inhibition, or share of isolates inhibited. An empty or dashed field is not shown. Percent inhibition refers to the dose given; in toxicity tests it is the harm to the cells. Conditions beyond the fields shown may differ between rows.

SMILES	strain or isolate	read-out	cells	dose	read by	changes	setting	value
O=[N+]([O-])c1cccnc1-n1cnc2ccccc21	H37Rv	MIC bound			resazurin			>6.25 µg/mL
Cc1c(C(=O)N2CCN(Cc3ccccc3)CC2)[n+](=O)c2cc(Cl)c(Cl)cc2n1[O-]	H37Rv	inhibition		6.25 µg/mL				0%
c1ccc(CSc2ncn[nH]2)cc1	My 331/88	MIC						1000 µM
CCCCCCCCc1ccc2c(c1)C(=O)c1nc3ccncc3c(=O)n1-2	TN2050RFLF:CO (MDR)	MIC						≤0.015 µg/mL
NNC(=O)c1ccncc1	3897	MIC						≥0.2 µg/mL
CO/C(=N\N=C\c1ccc(C(F)(F)F)cc1)c1ccncc1	6 PI	MIC						>20 µg/mL
Cc1c(C(=O)N2CCN(c3ccc([N+](=O)[O-])cc3)CC2)[n+](=O)c2ccccc2n1[O-]	H37Rv	MIC						>6.25 µg/mL
O=C1/C(=C/c2ccc(OC(=O)c3ccc(Cl)cc3)cc2)CCC/C1=C\c1ccc(OC(=O)c2ccc(Cl)cc2)cc1	H37Rv	inhibition		12.5 µg/mL				0%
Cc1c(C(=O)N2CCN(c3ccc(Cl)cc3)CC2)[n+](=O)c2ccccc2n1[O-]	H37Rv	MIC						>6.25 µg/mL
CN(C)CC1CCC/C(=C\c2ccc(OC(=O)/C=C/c3ccc(Br)cc3)cc2)C1=O	H37Rv	inhibition		12.5 µg/mL				99%
CC1(C)CCc2cc3c(O)c(-c4ccccc4)c(=O)oc3cc2O1	H37Rv	MIC bound			BACTEC			>12.5 µg/mL
O=c1oc2ccccc2cc1-c1cn2ccccc2n1	H37Rv	MIC			BACTEC			>6.25 µg/mL
C[Si]1(C)O[Si](C)(C)N(N)P(=S)(Oc2ccccc2)N1N	H37Rv	MIC			BACTEC			64 µg/mL
CC1(C)CC(N=c2cc3n(-c4cc(Cl)cc(Cl)c4)c4ccccc4nc-3cc2Nc2cc(Cl)cc(Cl)c2)CC(C)(C)N1	H37Rv	EC50	Macrophages				inside macrophages	<0.005 µg/mL
Cc1ccc2c(c1)[n+](=O)c(C(=O)N1CCN(c3ccccc3)CC1)c(C)n2[O-]	H37Rv	MIC						>6.25 µg/mL
Cc1cc(=O)oc2c3c(c4c(c12)OC(C)(C)C=C4)OC(C)(C)C=C3	H37Rv	inhibition		12.5 µg/mL	BACTEC			27%
CC[C@H]1OC(=O)[C@H](C)[C@@H](O[C@H]2C[C@@](C)(OC)[C@@H](O)[C@H](C)O2)[C@H](C)[C@@H](O[C@@H]2O[C@H](C)C[C@H](N(C)C)[C@H]2O)[C@](C)(OC)C[C@@H](C)C(=O)[C@H](C)[C@@H](O)[C@]1(C)O	29197	MIC						>4 µg/mL
CCC1CN(c2c(F)cc3c(=O)c(C(=O)O)cn([C@@H]4C[C@@H]4F)c3c2OC)CCN1	56 (RFP-resistant)	MIC						64 µg/mL
CC[As]1c2ccccc2Oc2ccccc21	H37Rv	MIC bound			BACTEC			≤12.5 µg/mL
O=C1c2cc(Cl)ccc2-n2c1nc1cnccc1c2=O	H37Rv	MIC						0.06 µg/mL
Cc1ccccc1NC(=O)c1c(C)n([O-])c2cc(Cl)c(Cl)cc2[n+]1=O	H37Rv	MIC						>6.25 µg/mL
COc1ccc(/C(C)=N/NC(=O)c2ccncc2)c(OC)c1	H37Rv	MIC						>20 µg/mL
NNC(=O)c1ccncc1	STB-825	MIC			resazurin			0.0625 µg/mL
CCN(CC)C(=O)c1cc(C2C3CC4CC(C3)CC2C4)c2ccccc2n1	H37Ra	MIC			BACTEC			>6.25 µg/mL
CN(C)CC1CCC/C(=C\c2ccc(OC(=O)c3ccc(Cl)cc3)cc2)C1=O	H37Rv	EC50						<12.5 µg/mL
O=C(CCSCCC(=O)N/N=C\C(O)C(O)C(O)C(O)CO)N/N=C\C(O)C(O)C(O)C(O)CO	H37Rv	MIC bound			BACTEC			>12.5 µg/mL
NNC(=O)c1cc(C2CCCCC2)nc2ccccc12	H37Ra	inhibition		6.25 µg/mL	BACTEC			2%
O=c1oc2c([N+](=O)[O-])cccc2cc1-c1cn2ccccc2n1	H37Rv	MIC			BACTEC			>6.25 µg/mL
COc1ccc2c(c1)[n+](=O)c(C(=O)N1CCN(c3ccc([N+](=O)[O-])cc3)CC1)c(C)n2[O-]	H37Rv	MIC						>6.25 µg/mL
O=C(N/N=C/c1ccco1)C(=O)Nc1cccc(C(F)(F)F)c1	H37Rv	MIC bound			BACTEC			>12.5 µg/mL
C[C@]1(COc2ccc(N3CCC(Oc4ccc(OC(F)(F)F)cc4)CC3)cc2)Cn2cc([N+](=O)[O-])nc2O1	18 strains (SM-resistant)	MIC90						0.012 µg/mL
O=C1c2ccccc2C(=O)c2cc(C[P+](c3ccccc3)(c3ccccc3)c3ccccc3)ccc21	FJ05120	MIC			resazurin	Multidrug-resistant		1 µg/mL
NNC(=O)c1cc(C2CCCCC2)c2cccc(C3CCCCC3)c2n1	H37Ra	inhibition		6.25 µg/mL	BACTEC			23%
Fc1ccccc1CSc1ncn[nH]1	My 331/88	MIC						250 µM
CO/C(=N\N=C\c1ccc(OC)c(F)c1)c1ccncc1	H37Rv	MIC						>20 µg/mL
Clc1ccccc1CSc1ncn[nH]1	My 331/88	MIC						500 µM
O=c1oc2c(Br)cc(Br)cc2cc1-c1cn2ccccc2n1	H37Rv	MIC			BACTEC			>6.25 µg/mL
Cc1c(C(=O)CC(=O)C(=O)NC2C3CC4CC(C3)CC2C4)[n+](=O)c2ccccc2n1[O-]	H37Rv	MIC bound			resazurin			>6.25 µg/mL
COc1cc(Br)cc2cc(-c3cn4ccccc4n3)c(=O)oc12	H37Rv	inhibition		6.25 µg/mL	BACTEC			37%
C/C(=N\NC(=O)c1ccncc1)c1ccc(Cl)cc1Cl	H37Rv	MIC						>20 µg/mL
CN(C)CC1CCC/C(=C\c2ccc(OC(=O)/C=C/c3ccc(Cl)c(Cl)c3)cc2)C1=O	H37Rv	EC50						<12.5 µg/mL
O=C(O)C(=O)O.OC(CNCCc1ccccc1)CN1c2ccccc2Sc2ccccc21	STB-960	MIC			resazurin			1 µg/mL
CC(=O)O[C@H]1OC(OC/C=C2\C=CC3N=C4C(=O)c5cc(Cl)ccc5N4C(=O)C3=C2)[C@H](OC(C)=O)[C@@H](OC(C)=O)[C@@H]1OC(C)=O	H37Rv	MIC						>8 µg/mL
CC1(C)CC(N=c2cc3n(-c4ccc(Cl)cc4Cl)c4ccccc4nc-3cc2Nc2ccc(Cl)cc2Cl)CC(C)(C)N1	TBRP171 (INH RMP-resistant)	MIC						0.06 µg/mL
O=C1N(c2nncs2)CCN1[N+](=O)[O-]	H37Rv	MIC	VERO					3.1 µg/mL
O=C1c2cc(Br)ccc2-n2c1nc1cnccc1c2=O	H37Rv	MIC						0.13 µg/mL
Cc1c2oc3c(C)ccc(C(=O)OCCN4CCOCC4)c3nc-2c(C(=O)OCCN2CCOCC2)c(N)c1=O	H37Rv	inhibition		12.5 µg/mL	BACTEC			81%
C[C@]1(COc2ccc(-c3cc(-c4cccc(C(F)(F)F)c4)on3)cc2)Cn2cc([N+](=O)[O-])nc2O1	ss18b non-replicating phase	MIC			broth dilution / resazurin			2.06 µM
COc1cccc2c(=O)n3c(nc12)C(=O)c1cc(I)ccc1-3	H37Rv	MBC						8 µg/mL
Cc1cc2c(cc1C)[n+](=O)c(C(=O)N1CCN(c3ccccc3)CC1)c(C)n2[O-]	H37Rv	inhibition		6.25 µg/mL				0%
C[C@]1(COc2ccc(-c3cc(COc4cccc(F)c4)on3)cc2)Cn2cc([N+](=O)[O-])nc2O1	ss18b non-replicating phase	MIC			broth dilution / resazurin			34.32 µM
Cc1c(C(=O)CC(=O)C(=O)Nc2ccc(Cl)cc2)[n+](=O)c2ccccc2n1[O-]	H37Rv	MIC bound			resazurin			>6.25 µg/mL
NNC(=O)c1cc(C2CCCC2)nc2ccccc12	H37Ra	MIC			BACTEC			>6.25 µg/mL
CO/C(=N\N=C\c1ccc(Cl)cc1Cl)c1ccncc1	16PI	MIC						>20 µg/mL
C[C@]1(COc2ccc(-c3cc(COc4ccc(C(F)(F)F)cc4)on3)cc2)Cn2cc([N+](=O)[O-])nc2O1	H37Rv	MIC			broth dilution / resazurin			0.51 µM
CC(=O)NNc1nc(C)c(C(=O)NNC(=O)C(=O)Nc2c(C)cccc2C)s1	H37Rv	inhibition		12.5 µg/mL	BACTEC			17%
O=C1c2cc(F)c(F)cc2-n2c1nc1ncccc1c2=O	H37Rv	MIC						>4 µg/mL
Cc1c(N2CC3CCCNC3C2)c(F)cc2c(=O)c(C(=O)O)cn([C@@H]3C[C@@H]3F)c12	56 (RFP-resistant)	MIC						1.56 µg/mL
Cc1ccn2cc(-c3cc4cc(Br)ccc4oc3=O)nc2c1	H37Rv	MIC			BACTEC			>6.25 µg/mL
C[C@]1(COc2ccc(-c3cc(-c4ccccc4F)on3)cc2)Cn2cc([N+](=O)[O-])nc2O1	ss18b non-replicating phase	MIC			broth dilution / resazurin			>36 µM
NNC(=O)Cc1cc(C2CCCCC2)nc2c(C3CCCCC3)cccc12	H37Ra	inhibition		6.25 µg/mL	BACTEC			56%
O=C1c2cc(C(F)(F)F)ccc2-n2c1nc1ncccc1c2=O	H37Rv	MIC						0.13 µg/mL
CCN(CC)c1ccc2cc3ccc(=[N+](CC)CC)cc-3oc2c1.CCN(CC)c1ccc2cc3ccc(=[N+](CC)CC)cc-3oc2c1.[Cl-].[Cl-].[Cl-].[Cl-].[Cl][Fe+][Cl].[Cl][Fe+][Cl]	H37Rv	MIC			BACTEC			≥12.5 µg/mL
CO/C(=N\N=C\c1cccc(Cl)c1)c1ccncc1	H37Rv	MIC						>20 µg/mL
O=C1c2cc(I)ccc2-n2c1nc1ncccc1c2=O	TN1082RFLP:V (DRUG sensitive)	MIC						0.03 µg/mL
O=C(CCSC(=S)Nc1ccc(Cl)cc1)NNc1ccccc1	H37Rv	MIC			BACTEC			128 µg/mL
Cc1ccn2cc(-c3cc4cccc([N+](=O)[O-])c4oc3=O)nc2c1	H37Rv	inhibition		6.25 µg/mL	BACTEC			100%
Cc1c(N2C[C@@H](N)C3(CC3)C2)c(F)cc2c(=O)c(C(=O)O)cn([C@@H]3C[C@@H]3F)c12	50 (RFP-resistant)	MIC						0.1 µg/mL
Brc1ccc(CSc2ncn[nH]2)cc1	My 331/88	MIC						500 µM
O=[N+]([O-])/C=C/c1cn(CCCCCCCCn2cc(/C=C/[N+](=O)[O-])c3ccccc32)c2ccccc12	H37Rv	MIC bound			BACTEC			>6.25 µg/mL
C[C@]1(COc2ccc(-n3cc(COc4ccc(F)cc4)nn3)cc2)Cn2cc([N+](=O)[O-])nc2O1	H37Rv	MIC			broth dilution / resazurin			0.54 µM
CC1(C)CC(=O)OC/C=C\CC(Cc2ccccc2)C(=O)C1	H37Rv	inhibition		12.5 µg/mL	BACTEC			-45%
O=c1oc2ccccc2cc1-c1cn2ccc(Br)cc2n1	H37Rv	inhibition		6.25 µg/mL	BACTEC			6%
NNC(=O)c1ccncc1	Isolate P	MIC						0.125 µg/mL
C/C(=N\NC(=O)c1ccncc1)c1cccc(C(F)(F)F)c1	H37Rv	MIC						>20 µg/mL
COc1cccc2c(=O)n3c(nc12)C(=O)c1cc(C(=O)O)ccc1-3	H37Rv	MIC						>8 µg/mL
Cc1cc2c(cc1C)[n+](=O)c(C(=O)Nc1ccccc1)c(C)n2[O-]	H37Rv	inhibition		6.25 µg/mL				0%
COc1ccc(/C=N/Nc2ccccn2)cc1OC	H37Rv	MIC bound			BACTEC			>12.5 µg/mL
C/C(=N\NC(=O)c1ccncc1)c1ccc(Cl)c(Cl)c1	H37Rv	MIC						>20 µg/mL
COc1ccc(C2CC(c3c(C)nn(-c4ccccc4)c3-c3ccc(C)cc3O)=NN2c2ccccc2)cc1	H37Rv	MIC bound			resazurin			>6.25 µg/mL
CN(C)CC1CCC/C(=C\c2ccc(OC(=O)/C=C/c3ccc(F)cc3)cc2)C1=O	H37Rv	EC50						<12.5 µg/mL
CN[C@@H]1[C@H](O[C@H]2[C@H](O[C@@H]3[C@H](O)[C@@H](O)[C@@H](OC(N)=O)[C@@H](O)[C@@H]3N=C(N)N)O[C@@H](C)[C@]2(O)CO)O[C@@H](CO)[C@H](O)[C@H]1O	H37Rv	MIC			BACTEC			12.8 µg/mL
NNC(=O)c1ccnc2ccccc12	H37Ra	MIC			BACTEC			>6.25 µg/mL
C=C[C@H]1CN2CC[C@H]1C[C@@H]2[C@@H](O)c1ccnc2ccc(OC)cc12	H37Rv	inhibition		128 µg/mL	BACTEC			59%
C/C(=N\NC(=O)c1ccncc1)c1cccc(Br)c1	H37Rv	MIC						>20 µg/mL